Assay [1] addresses Hantaan virus polymerase (HTNV-L), full-length wild type (Hantaan virus (strain 76-118/Korean hemorrhagic fever)) (UniProt P23456). As to the kind of experiment: cryo-EM 2D class averages.
The target is the same in assay [2]. As to the kind of experiment: mass photometry.
For assay [3] the target is unchanged. The experiment in a line: mass photometry. The source holds these as a separate data set.
The target is the same in assay [4]. The experiment in a line: cryo-EM structure.

The text below walks through data of PMC10937945 (2023).

Several values for one entry are separate records, joined by “and”; a condition that tells them apart may be missing. Equal values may be shown once.

In assay [1], “Hantaan virus polymerase (HTNV-L), full-length wild type, P23456 1-2151” yielded a percent of particles in 2D class averages that are 5'vRNA-related dimers of 7.6% and a stoichiometry N of 2. For the same substance, in assay [2], the stoichiometry N is 3 and 4. In addition, in assay [3], the percent of detected species that are dimers amounted to 17%; the percent of detected species that are higher oligomers up to hexamers was found to be 2%; the stoichiometry N was 2 and 6. In assay [4], the percent of particles in 2D class averages that are hexamers stood at 2.1%; the percent of particles in 2D class averages that are symmetric dimers was determined as 10.1%; the stoichiometry N was 2 and 6.
